Laboratory results: publication PMC8864717 (Chemical Science, 2021)

Target: SARS-CoV-2 Hel (Severe acute respiratory syndrome coronavirus 2, UniProt P0DTD1)
Settings: read-out: IC50, SARS-CoV-2 Hel duplex (dsDNA) unwinding activity

## colloidal bismuth subcitrate [CBS]
  IC50: 1.24 µM
